Results on one molecule are retold here after publication PMC2807033, “Rep Provides a Second Motor at the Replisome to Promote Duplication of Protein-Bound DNA” (Molecular Cell, 2009).

The test has as its target T1, Rep helicase (E. coli), wild type (E. coli, UniProt P09980 1-673).
T1 construct: Rep helicase, E. coli; Construct and purification are in the Supplemental Experimental Procedures; also called WT Rep
T1 sequence (looked up): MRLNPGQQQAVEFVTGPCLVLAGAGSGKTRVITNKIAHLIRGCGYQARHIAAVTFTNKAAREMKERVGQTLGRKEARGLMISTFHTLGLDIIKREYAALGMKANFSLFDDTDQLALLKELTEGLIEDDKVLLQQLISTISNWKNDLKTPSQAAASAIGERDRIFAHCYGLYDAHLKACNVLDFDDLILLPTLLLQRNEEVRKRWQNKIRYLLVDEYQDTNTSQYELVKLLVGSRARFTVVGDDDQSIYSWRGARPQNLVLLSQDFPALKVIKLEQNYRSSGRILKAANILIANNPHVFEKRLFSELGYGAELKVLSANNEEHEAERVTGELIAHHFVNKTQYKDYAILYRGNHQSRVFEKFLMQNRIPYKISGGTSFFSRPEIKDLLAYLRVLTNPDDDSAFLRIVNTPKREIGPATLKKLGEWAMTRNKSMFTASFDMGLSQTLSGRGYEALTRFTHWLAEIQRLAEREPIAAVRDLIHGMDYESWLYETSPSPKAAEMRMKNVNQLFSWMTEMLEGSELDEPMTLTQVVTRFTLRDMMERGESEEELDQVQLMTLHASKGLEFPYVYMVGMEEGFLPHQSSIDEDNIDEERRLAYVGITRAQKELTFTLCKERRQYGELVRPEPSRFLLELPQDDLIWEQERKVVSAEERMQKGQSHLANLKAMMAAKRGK
Briefly: not stated; apparent KD (equilibrium dissociation constant), Figure S5; the method is not told in the text shown (SPR is the only quantitative binding method that the paper names). The following applies: both partners purified.

B1: E. coli replicative helicase DnaB, purified (enzyme, UniProt P0ACB0 1-471, looked up)
chain: MAGNKPFNKQQAEPRERDPQVAGLKVPPHSIEAEQSVLGGLMLDNERWDDVAERVVADDFYTRPHRHIFTEMARLQESGSPIDLITLAESLERQGQLDSVGGFAYLAELSKNTPSAANISAYADIVRERAVVREMISVANEIAEAGFDPQGRTSEDLLDLAESRVFKIAESRANKDEGPKNIADVLDATVARIEQLFQQPHDGVTGVNTGYDDLNKKTAGLQPSDLIIVAARPSMGKTTFAMNLVENAAMLQDKPVLIFSLEMPSEQIMMRSLASLSRVDQTKIRTGQLDDEDWARISGTMGILLEKRNIYIDDSSGLTPTEVRSRARRIAREHGGIGLIMIDYLQLMRVPALSDNRTLEIAEISRSLKALAKELNVPVVALSQLNRSLEQRADKRPVNSDLRESGSIEQDADLIMFIYRDEVYHENSDLKGIAEIIIGKQRNGPIGTVRLTFNGQWSRFDNYAGPQYDDE
notes: replicative helicase DnaB, E. coli; Construct and purification are in the Supplemental Experimental Procedures; also called E. coli DnaB
Take B1: the Kd is under 100 nM.
